# B1: VHH-72 human apoferritin fusion (24-mer) (other)
# chain: QVQLQESGGGLVQAGGSLRLSCAASGRTFSEYAMGWFRQAPGKEREFVATISWSGGSTYYTDSVKGRFTISRDNAKNTVYLQMNSLKPDDTAVYYCAAAGLGTVVSEWDYDYDYWGQGTQVTVSGGGGSGGGGSGGGGSGGGGSGGGGSGGGSSQIRQNYSTDVEAAVNSLVNLYLQASYTYLSLGFYFDRDDVALEGVSHFFRELAEEKREGYERLLKMQNQRGGRALFQDIKKPAEDEWGKTPDAMKAAMALEKKLNQALLDLHALGSARTDPHLCDFLETHFLDEEVKLIKKMGDHLTNLHRLGGPEAGLGEYLFERLTLRHD
# Key:
# [1] = biological target: T1, SARS-CoV-2 Spike on HIV-based pseudotyped virus (Spike plasmid BEI NR52310) (SARS-CoV-2); experiment: cell-based or functional assay
# [2] = biological target: T1, SARS-CoV-2 Spike on HIV-based …; experiment: cell-based or functional assay; remark: listed apart in the source
binder,measurement,setting,value
B1,fold increase in neutralization potency against PsV compared to the Fc fusion,[1],~10000 fold
same,Median IC50 (PsV neutralization),[2],0.13 pM

# From patent US20250011397A1 (HOSPITAL FOR SICK CHILDREN, published 2025)
